The record followed here is patent publication US7585861B2, “HIV inhibiting 1,2,4-triazines” (Janssen Pharmaceutica, N.V., priority 2003, dated 2009).

A value given as a limit tells only on which side of the number the result lay.

The data set concerns HIV. The experiment in a line: Test A: inhibition of the HIV-induced cytopathic effect in MT-4 cells (MTT). The class given is cell-based. The note with it: selectivity index SI = ratio of CC50 to IC50. On the procedure: A rapid, sensitive and automated assay procedure was used for the in vitro evaluation of anti-HIV agents. An […] T4-cell line, MT-4, which was previously shown (Koyanagi et al., Int. J. Cancer, 36, 445-451, 1985) to be highly susceptible to and permissive for HIV infection, served as the target cell line. Inhibition of the HIV-induced cytopathic effect was used as the end point. The viability of both HIV- and mock-infected cells was assessed spectrophotometrically via the in situ reduction of 3-(4,5-dimethylthiazol-2-yl)-2,5-diphenyltetrazolium bromide (MTT). […] The percent protection achieved by the compound in HTV-infected cells was calculated by the following formula:
[formula] whereby (ODT)HIV is the optical density measured with a given concentration of the test compound in HIV-infected cells; (ODC)HIV is the optical density measured for the control unteated HIV-infected cells; (ODC)MOCK is the optical density measured for the control untreated mock-infected cells; all optical density values were determined at 540 nm. […] The ratio of CC50 to IC50 was defined as the selectivity index (SI).

Turning to `Cc1cc(C#N)cc(C)c1Nc1cnnc(Nc2ccc(C#N)cc2)n1` [Compound 1], the PSI is given as under −4.7.

For `Cc1cc(CCC#N)cc(C)c1Nc1nc(Nc2ccc(C#N)cc2)nnc1C` [Compound 2], the PSI is recorded as under −5.0.

As for `Cc1cc(C#N)cc(C)c1Oc1nc(Nc2ccc(C#N)cc2)nnc1Cl` [Compound 3], the PSI is given as under −4.3.

In the case of `Cc1cc(C#N)cc(C)c1Nc1nc(Nc2ccc(C#N)cc2)nnc1C` [Compound 5], the PSI is listed as under −4.7.

In the case of `Cc1cc(C)c(Nc2cnnc(Nc3ccc(C#N)cc3)n2)c(C)c1` [Compound 7], the PSI was under −3.8.

As for `Cc1cc(/C=C/C#N)cc(C)c1Nc1cnnc(Nc2ccc(C#N)cc2)n1` [Compound 8], the PSI was under −3.3.

For `Cc1cc(CCC#N)cc(C)c1Nc1cnnc(Nc2ccc(C#N)cc2)n1` [Compound 9], the PSI is on record as under −3.8.

`N#Cc1ccc(Nc2nncc(Nc3c(Cl)cc(C#N)cc3Cl)n2)cc1` [Compound 10]: the PSI is on record as under −3.1.

For `COc1cc(C)c(Nc2nc(Nc3ccc(C#N)cc3)nnc2C)c(C)c1` [Compound 11], the PSI is given as under −3.7.

In the case of `Cc1cc(C)c(Nc2nc(Nc3ccc(C#N)cc3)nnc2C)c(C)c1` [Compound 12], the PSI is on record as under −4.9.

In the case of `Cc1cc(/C=C/C#N)cc(C)c1Nc1nc(Nc2ccc(C#N)cc2)nnc1C` [Compound 13], the PSI is under −4.2.

As to `COc1cc(C)c(Nc2cnnc(Nc3ccc(C#N)cc3)n2)c(C)c1` [Compound 14], the PSI was under −4.8.

Turning to `Cc1cc(Br)cc(C)c1Nc1cnnc(Nc2ccc(C#N)cc2)n1` [Compound 15], the PSI is listed as under −4.8.

For the compound `Cc1cc(Br)cc(C)c1Nc1nc(Nc2ccc(C#N)cc2)nnc1C` [Compound 16], the PSI is listed as −4.5.

As to `Cc1cc(C(C)(C)C)cc(C)c1Nc1cnnc(Nc2ccc(C#N)cc2)n1` [Compound 17], the PSI is listed as under −4.0.

Consider `Cc1cc(C(C)(C)C)cc(C)c1Nc1nc(Nc2ccc(C#N)cc2)nnc1C` [Compound 18], for which the PSI is on record as under −4.1.

For the compound `Cc1cc(/C=C\C#N)cc(C)c1Nc1nc(Nc2ccc(C#N)cc2)nnc1C` [Compound 19], the PSI is −4.4.

`Cc1cc(CC#N)cc(C)c1Nc1nc(Nc2ccc(C#N)cc2)nnc1C` [Compound 20]: the PSI is reported as under −4.0.

For the compound `Cc1cc(/C=C/C(=O)N(C)C)cc(C)c1Nc1nc(Nc2ccc(C#N)cc2)nnc1C` [Compound 22], the PSI was under −2.5.

For `COc1cc(C)cc(C)c1Nc1nc(Nc2ccc(C#N)cc2)nnc1C` [Compound 23], the PSI was −2.5.

Turning to `Cc1cc(CC#N)cc(C)c1Nc1cnnc(Nc2ccc(C#N)cc2)n1` [Compound 24], the PSI is under −4.2.

`COc1cc(OC)c(Nc2nc(Nc3ccc(C#N)cc3)nnc2C)c(OC)c1` [Compound 25]: the PSI is −4.3.

Consider `Cc1cc(C)c(Nc2nc(Nc3ccc(C#N)cc3)nnc2C)c(CC#N)c1` [Compound 27], for which the PSI is under −4.3.

For the compound `Cc1cc(C(=O)N(C)C)cc(C)c1Nc1nc(Nc2ccc(C#N)cc2)nnc1C` [Compound 31], the PSI is on record as under −3.5.

Take `COc1cc(/C=C/C#N)cc(OC)c1Nc1nc(Nc2ccc(C#N)cc2)nnc1C` [Compound 33]: the PSI was −3.2.

As to `Cc1nnc(Nc2ccc(C#N)cc2)nc1Nc1c(Cl)cc(/C=C/C#N)cc1Cl` [Compound 34], the PSI was −3.6.

With `CCOc1cc(C)c(Nc2nc(Nc3ccc(C#N)cc3)nnc2C)c(C)c1` [Compound 35], the PSI is listed as under −3.6.

As to `COc1cc(OC)c(Nc2cnnc(Nc3ccc(C#N)cc3)n2)c(OC)c1` [Compound 36], the PSI is under −5.3.

As to `CNC(=O)c1cc(C)c(Nc2cnnc(Nc3ccc(C#N)cc3)n2)c(C)c1` [Compound 37], the PSI was −2.7.

On to `Cc1cc(OCC#N)cc(C)c1Nc1nc(Nc2ccc(C#N)cc2)nnc1C` [Compound 38], for which the PSI was −4.2.

As to `Cc1cc(/C=C/C(=O)N2CCCC2)cc(C)c1Nc1nc(Nc2ccc(C#N)cc2)nnc1C` [Compound 39], the PSI was under −3.2.

Turning to `COc1cc(CCC#N)cc(OC)c1Nc1nc(Nc2ccc(C#N)cc2)nnc1C` [Compound 40], the PSI is listed as −3.6.

Take `Cc1cc(OCC#N)cc(C)c1Nc1cnnc(Nc2ccc(C#N)cc2)n1` [Compound 41]: the PSI is reported as under −3.0.

With `CC(C#N)=Cc1cc(C)c(Nc2nc(Nc3ccc(C#N)cc3)nnc2C)c(C)c1` [Compound 42], the PSI is −4.3.

For `CCOc1cc(C)c(Nc2cnnc(Nc3ccc(C#N)cc3)n2)c(C)c1` [Compound 43], the PSI is listed as under −3.5.

In the case of `Cc1cc(C)c(Nc2nc(Nc3ccc(C#N)cc3)nnc2Cl)c(C)c1` [Compound 44], the PSI is under −4.0.

Turning to `Cc1cc(C)c(Nc2nnc(Cl)c(Nc3ccc(C#N)cc3)n2)c(C)c1` [Compound 45], the PSI was under −3.0.

`Cc1cc(C)c(Sc2nc(Nc3ccc(C#N)cc3)nnc2Cl)c(C)c1` [Compound 46]: the PSI is listed as under −3.3.

As to `Cc1cc(/C=C/C(=O)N2CCOCC2)cc(C)c1Oc1nc(Nc2ccc(C#N)cc2)nnc1C` [Compound 47], the PSI is given as under −3.5.
